For some assays here: For at least one entry, the source does not settle the construct or the ends of the probe. For some assays here: Tags and fusion partners may be left off the protein sequences shown.
Assays:
[1] = molecular target: T1, OmpR-His6 (non-phosphorylated) (UniProt P74982); test: EMSA; conditions: 0.1-0.4 ug, minimum binding amount about 3-fold higher than OmpR-P, 40 mM Tris-HCl pH 8.0, 100 mM KCl, 10 mM MgCl2, 5% glycerol, room temperature 30 min, recombinant protein, residues 1-239, protein details: N-terminal His6, probe letters rebuilt from the primers and the genome
T1 sequence (looked up): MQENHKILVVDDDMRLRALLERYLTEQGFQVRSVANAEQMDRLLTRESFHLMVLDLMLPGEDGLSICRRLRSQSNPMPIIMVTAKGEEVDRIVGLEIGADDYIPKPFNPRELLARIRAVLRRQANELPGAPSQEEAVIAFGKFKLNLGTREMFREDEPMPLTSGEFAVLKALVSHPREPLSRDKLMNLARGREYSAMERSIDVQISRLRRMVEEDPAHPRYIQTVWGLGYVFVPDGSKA

[2] = tested on: RovA-His6 (Yersinia enterocolitica O9 Ye9); test: EMSA; conditions: 0.125-1.0 ug RovA, stepwise shift, 40 mM Tris-HCl pH 8.0, 100 mM KCl, 10 mM MgCl2, 5% glycerol, room temperature 30 min, recombinant protein, residues 1-143, protein details: His6 (text states both N-terminal and C-terminal), probe letters rebuilt from the primers and the genome

TTTTGCTGTGAGAACCCATAAGTAAATATTCCAAATATTAAACCGATCGATAATATTAGCCTGCTAATGATTTTAGTCACAGTTAGCGTATTAAAAAATGAATACATTAGTGTACCCCTTAGGTATAAATTAACGCGGTAATATTTACTTAAGCAACAGAAATGAAAACAGCGACAAGAAATAACTTCTTCTTCTCTCTCGCAAACACTAACAATACAATATAATAGCAGAACTTACAAAAATAAAATTAAAAAATTAAAAATAACAGCAATAACAAATGAAATGCAAAAAAAATTCATCATGGTAATATTAGCTTGCTAATTTAATTGTCAGGTTATATTTAGCCTGAATATATATGGTGATATGTTATTATTATCAAAATAGCTTACATTCGTCTCATAAAATAGACTCTCTGCATTTTTCACGATGCATTAATCTAATGCGGCTAAGCAACCGCTGGCTTAGTTTAAAGGAGGGTATATGAAAAAACAGAGTGTACTTTTGAGTTTGATTTTTTGCAGTGTGATGGCGATGTCAT (double strand) [inv promoter fragment 553 bp]
binding result [1]: binds | binding result [2]: binds

Source: publication PMC3524506
